Results of unrelated studies side by side (data: NIAID ChemDB).

Shared fields: growth or infection tests; agent: Mycobacterium tuberculosis

An empty or dashed field is not shown. Inhibition is in % at the dose shown (toxicity tests: loss of growth or viability). MIC bound comes from a single tested concentration. ECn is the concentration giving n% inhibition of infection, replication or growth. A number after MIC or MFC names an inhibition level or a share of isolates. Lines come from different laboratories, so protocols vary. a–b is a range or a potency band.

structure | dose | read by | setting | measure | strain | value
CCCCNCc1ccccc1F | - | - | - | MIC | H37Rv | 250 µg/mL
CC1=CC(=O)c2c(O)cccc2C1=O | - | - | - | MIC | H37Ra | 400 µg/mL
O=c1oc2cccc(O)c2s1 | - | BACTEC | - | MIC bound | H37Rv | >12.5 µg/mL
O=C1c2ccccc2C(=O)N1c1ccc(S(=O)(=O)c2ccc(N3C(=O)c4ccccc4C3=O)cc2)cc1 | - | resazurin | - | MIC90 | H37Rv | >125 µg/mL
Nc1nc(Cl)c(Cl)nc1N | 6.25 µg/mL | BACTEC | - | inhibition | H37Rv | 0%
Clc1cccc(Cn2cc(Cn3c4ccccc4c4ccccc43)nn2)c1 | - | agar | - | MIC | H37Rv | 50 µg/mL
CCOC(=O)Nc1cc2c(c(N)n1)N=C(c1ccccc1)CO2 | - | - | - | EC50 | H37Rv | >12.5 µg/mL
CC(=N\NC(=O)c1ccc([N+](=O)[O-])o1)/C(Cl)=N/Nc1ccccc1 | - | - | - | MIC | RCMB 010126 | 7.81 µg/mL
CCCCCCCCNCc1ccccc1 | - | - | - | MIC | H37Rv | 250 µg/mL
CCOC(=O)c1ccc(N2C(=S)N(C(=O)c3ccccc3)C(=Nc3ccccc3)C2=Nc2ccccc2)cc1 | - | BACTEC | - | MIC bound | H37Rv | >12.5 µg/mL
O=C(NCc1ccc(Cl)cc1)c1nnc(-c2ccccn2)[nH]c1=O | - | - | - | MIC | H37Rv | >32 µg/mL
Clc1ccc2c(c1)nc1cc(Nc3ccccc3)c(=NC3CCCCC3)cc-1n2-c1ccccc1 | - | - | - | MIC | H37Rv | 3.3 µg/mL
O=Cc1ccc([N+](=O)ONNC(=O)c2ccco2)cc1 | 6.25 µg/mL | resazurin | - | inhibition | H37Rv | 35%
CCCCNCc1ccccc1Br | - | - | - | MIC | H37Rv | 125 µg/mL
O=C(NCc1ccc(C(F)(F)F)cc1)c1nnc(-c2ccccn2)[nH]c1=O | - | - | - | MIC | H37Rv | 16 µg/mL
O=[N+]([O-])c1ccc2nc(CCl)[nH]c2c1 | - | resazurin | - | MIC bound | H37Rv | >6.25 µg/mL
CCOc1ccc(NC(C)=O)cc1 | - | - | - | MIC | H37Ra | 800 µg/mL
C[C@H]1COc2c(N3CCN(C)CC3)c(F)cc3c(=O)c(C(=O)O)cn1c23 | 1 µg/mL | - | - | inhibition | 55 isolates | 91%
NC(=O)C(=O)C1CCC2=C(Sc3ccccc3N2)C1=O | 12.5 µg/mL | BACTEC | - | inhibition | H37Rv | 17%
Brc1cc(Br)cc(Cn2cc(Cn3c4ccccc4c4ccccc43)nn2)c1 | - | agar | - | MIC | H37Rv | 25 µg/mL
NC(=O)C1(N2CCCCC2)CCNCC1 | - | resazurin | - | MIC bound | H37Rv | >6.25 µg/mL
CCCCCCCCCCCCCCCCCCSCCCCC(=O)O | - | - | - | MIC50 | H37Ra | 0.63–1 µg/mL
CC(C)c1ccc(/C=C2\CSC/C(=C/c3ccc(C(C)C)cc3)C2=O)cc1 | - | BACTEC | - | MIC bound | H37Rv | >12.5 µg/mL
NC[C@H]1CN(c2cc(F)c(N3CC4CCC(C3)O4)c(F)c2)C(=O)O1 | - | broth dilution / fluorescence | - | MIC | H37Rv | 0.2–0.3 µg/mL
CCOC(=O)Nc1cc(N/N=C/c2ccccc2)c(N)c(N)n1 | - | - | - | EC50 | H37Rv | <12.5 µg/mL
CC1COc2c(N3CCN(C)CC3)c(F)cc3c(=O)c(C(=O)O)cn1c23 | - | - | - | MIC | H37Rv | 1 µg/mL
CC(Oc1ccc(-c2nc(N)nc(N)n2)cc1)c1ccccc1 | - | resazurin | - | MIC | H37Rv | 2050 µM
CCOC(=O)Cn1nc2oc(=O)c(CCN3CCN(c4ccccc4OC)CC3)c(C)c2c1C | 6.25 µg/mL | resazurin | - | inhibition | H37Rv | 7%
Cc1nc2ccccc2nc1C(=O)CN(C)C1CCCCC1 | - | resazurin | - | MIC | H37Rv | 50 µg/mL
Cc1ccc(-n2cc(Cn3c4ccccc4c4ccccc43)nn2)cc1 | - | agar | - | MIC | H37Rv | 25 µg/mL
CCOC(=O)Nc1cc2nc(C)c(C(C)c3ccc(OC)cc3)nc2c(N)n1 | - | - | - | EC50 | H37Rv | <12.5 µg/mL
O=C(NCc1cccc(Cl)c1)c1nnc(-c2ccccn2)[nH]c1=O | - | - | - | MIC | H37Rv | >32 µg/mL
CCCCNCc1ccc(N(CC)CC)cc1 | - | - | - | MIC | H37Rv | 250 µg/mL
CC(=O)NC1[C@H](OCCCSC2CCCC2)OC(COC(C)=O)[C@H](OC(C)=O)[C@@H]1O[C@@H]1OC(C)[C@H](OC(C)=O)[C@H](OC(C)=O)C1OC(C)=O | - | agar | - | MIC | H37Rv | 6.25 µg/mL
Cc1ccc(-c2n[nH]c(=O)n2-n2c(C)ccc2C)cc1 | - | - | - | MIC | 1274 | 2.58 µg/mL
CCCCCCOC(=O)c1ccccc1 | - | visual reading | - | MIC | H37Rv | >512 µg/mL
Fc1ccc(-n2cc(Cn3c4ccccc4c4ccccc43)nn2)cc1 | - | agar | - | MIC | H37Rv | 25 µg/mL
CC(/C=C/C=C(\C)C(=O)O)=C\C=C\C=C(C)\C=C\C=C(/C)C(=O)O | - | BACTEC | - | MIC bound | H37Rv | >12.5 µg/mL
CCOC(=O)Nc1cc(Nc2ccc(Cl)cc2)c2nc(-c3ccccc3)c(-c3ccccc3)nc2n1 | - | - | - | EC50 | H37Rv | >12.5 µg/mL
NNC(=O)c1ccncc1 | - | - | - | MIC | RCMB 010126 | 0.4 µg/mL
CC1COc2c(N3CCN(C)CC3)c(F)cc3c(=O)c(C(=O)O)cn1c23 | - | - | - | MIC | 483-8 | 0.5 µg/mL
O=C1C=CC(=O)c2ccccc21 | - | - | - | MIC | H37Ra | 100 µg/mL
CCCCNC(=O)c1cc([N+](=O)[O-])cc([N+](=O)[O-])c1 | - | visual reading | - | MBC | H37Rv | 0.5 µg/mL
CC(C)N=c1cc2n(-c3ccc(Cl)cc3)c3ccccc3nc-2cc1Nc1ccc(Cl)cc1 | - | - | multidrug-resistant | MIC | 2219 | 0.12 µg/mL
C/C1=C\C(C)C(O)C(O)C(=O)C2(C)CNC3=C(O2)C(=O)c2c(cc(C)c(O)c2C1=O)C3=O | 12.5 µg/mL | BACTEC | - | inhibition | H37Rv | 20%
Nc1nc(N)nc(-c2ccc(OCc3ccccc3)cc2)n1 | - | resazurin | - | MIC | H37Rv | 87.36 µM
CCOC(=O)Nc1nc(NC(=O)OCC)c([N+](=O)[O-])c(NC(C)/C(=N/O)c2ccccc2)c1[N+](=O)[O-] | - | - | - | EC50 | H37Rv | >12.5 µg/mL
O=C(NC[C@H]1CN(c2ccc(N3CC4(C3)CS(=O)C4)c(F)c2)C(=O)O1)C1CCC1 | - | broth dilution / fluorescence | - | MIC | H37Rv | 1.8 µg/mL
COCOC(OCOC)c1ccc([N+](=O)ONNC(=O)c2cccnc2)o1 | 6.25 µg/mL | resazurin | - | inhibition | H37Rv | 84%
O=C(O)c1cccc2ccccc12 | - | - | - | MBC | H37Ra | 400 µg/mL
CCOC(=O)c1cc(C(=O)c2ccccc2[N+](=O)[O-])n2c1c(Br)cc1ccccc12 | - | resazurin | - | MIC | H37Rv | 1 µg/mL
O=C(NC1CCCCCCC1)c1ccc2ccccc2c1 | - | visual reading / absorbance | - | MIC90 | H37Rv | 7.11 µM
NNC(=O)c1ccncc1 | - | resazurin / absorbance | - | MIC | Clinical isolate 4851 | 0.03 µg/mL
CC(=O)c1c(O)c(C)c(O)c2c1OC1=CC(=O)C(C(C)=O)C(=O)[C@]12C | - | BACTEC | - | MIC bound | H37Rv | ≤128 µg/mL
C=CCO[C@@H]1OC(COC(C)=O)[C@H](OC(C)=O)[C@H](O[C@@H]2OC(C)[C@H](OC(C)=O)[C@H](OC(C)=O)C2OC(C)=O)C1NC(C)=O | - | agar | - | MIC | H37Rv | 12.5 µg/mL
CCN(CC)c1ccc2nc3c4ccccc4c(=NC(=O)c4ccccc4-c4c5ccc(N(CC)CC)cc5[o+]c5cc(N(CC)CC)ccc45)cc-3oc2c1.[Cl-] | - | BACTEC | - | MIC | H37Rv | 1.6 µg/mL
FC(F)(F)c1cccc(-n2cc(Cn3c4ccccc4c4ccccc43)nn2)c1 | - | agar | - | MIC | H37Rv | 50 µg/mL
COc1cc(-c2nc(N)nc(N)n2)ccc1OCc1cccc(Cl)c1 | - | resazurin | - | MIC | H37Rv | 6.26 µM
NC(=O)CC(N=C1C(=O)OC(C(O)CO)C1=NC(CC(N)=O)C(=O)O)C(=O)O | 12.5 µg/mL | BACTEC | - | inhibition | H37Rv | 0%
C/C=C/c1ccc2oc(-c3ccc(OC)c(OC)c3)c(C)c2c1 | - | resazurin / absorbance | - | MIC | Clinical isolate 49 | 3.9 µg/mL
O=C(N=Nn1c(O)c(O)c2ccccc21)c1ccco1 | 6.25 µg/mL | resazurin | - | inhibition | H37Rv | 41%
Cc1cc2c(cc1Cl)SC(NNC(=O)c1ccco1)=NS2(=O)=O | 6.25 µg/mL | resazurin | - | inhibition | H37Rv | -3%
CC(=N\NC(=O)c1ccc([N+](=O)[O-])o1)/C(Cl)=N/Nc1ccc(S(=O)(=O)Nc2nccs2)cc1 | - | - | - | MIC | RCMB 010126 | 7.81 µg/mL
Oc1ccc(O)cc1 | - | - | - | MIC | H37Ra | 25 µg/mL
Cc1nc2ccccc2nc1C(=O)CNc1nccs1 | - | resazurin | - | MIC | H37Rv | 50 µg/mL
COC(=O)c1cc(-c2ccco2)c2c(=O)n(-c3ccccc3)[nH]c2n1 | - | BACTEC | - | MIC bound | H37Rv | >12.5 µg/mL
CCC[C@H]1C[C@@H]2CC[C@@H](O2)[C@H](C)C(=O)O[C@@H]([C@H](C)[C@H]2CC[C@@H](C[C@@H](CCC)N(C)C)O2)[C@H](C)[C@@H]2CC[C@@H](O2)[C@@H](C)C(=O)O1 | - | - | - | MIC | 11 isolates | 2 µg/mL
CCOC(=O)Nc1cc(NCC(=O)CN(C)c2ccccc2)c([N+](=O)[O-])c(N)n1 | - | - | - | EC50 | H37Rv | >12.5 µg/mL
CC(=O)c1ccc([N+](=O)ONNC(=O)c2ccco2)cc1 | 6.25 µg/mL | resazurin | - | inhibition | H37Rv | 62%
CC(=O)NC1[C@H](OCCCSCC(COC(C)=O)OC(C)=O)OC(COC(C)=O)[C@H](OC(C)=O)[C@@H]1O[C@@H]1OC(C)[C@H](OC(C)=O)[C@H](OC(C)=O)C1OC(C)=O | - | agar | - | MIC | H37Rv | 3.13 µg/mL
CC(C)CCCNCc1ccccc1 | - | - | - | MIC | H37Rv | 125 µg/mL
Nc1nc(N)c(N=Nc2ccccc2S(=O)(=O)O)c(=O)[nH]1 | - | BACTEC | - | MIC bound | H37Rv | >12.5 µg/mL
c1ccc(-n2cc(Cn3c4ccccc4c4ccccc43)nn2)cc1 | - | agar | - | MIC | H37Rv | 50 µg/mL
COc1ccc(N/N=C(Cl)/C(C)=N/NC(=O)c2ccc([N+](=O)[O-])o2)cc1 | - | - | - | MIC | RCMB 010126 | 62.5 µg/mL
COC(=O)[C@@H]1CN(C(=O)c2ccccc2)C(=O)N1C(=O)Oc1ccccc1 | - | BACTEC | - | MIC bound | H37Rv | >12.5 µg/mL
CC(C)CC(C)NCc1ccccc1 | - | - | - | MIC | H37Rv | 250 µg/mL
CCN(CC)CCCNc1ccc(C)c2sc3ccccc3c(=O)c12 | 12.5 µg/mL | BACTEC | - | inhibition | H37Rv | 100%
O=C(NC12CC3CC(CC(C3)C1)C2)c1cc(=O)c2c(Br)cccc2[nH]1 | - | visual reading / absorbance | - | MIC | H37Rv | 9.97 µM
CCCCNCc1cccc([N+](=O)[O-])c1 | - | - | - | MIC | H37Rv | 60 µg/mL
C#CCn1c2ccccc2c2ccccc21 | - | agar | - | MIC | H37Rv | 12.5 µg/mL
CCCCCCCCCCCCCCCCCCCSCCCC(=O)O | - | - | - | MIC50 | H37Ra | 0.63–1.25 µg/mL
O=C(NCc1ccccc1)c1nnc(-c2ccccn2)[nH]c1=O | - | - | - | MIC | H37Rv | >32 µg/mL
Cc1nc2ccccc2nc1C(=O)CSCCO | - | resazurin | - | MIC | H37Rv | 50 µg/mL
Cc1ccc2c(c1)OCC1(CC(C)(C)c3cc(C)ccc3O1)C2(C)C | 6.25 µg/mL | BACTEC | - | inhibition | H37Rv | 0%
CCN(CC)CC(=O)c1nc2ccccc2nc1C | - | resazurin | - | MIC | H37Rv | 50 µg/mL
C[C@H]1O[C@@H](c2ccc3c(c2O)C(=O)C2=C(C3=O)[C@@]3(O)C(=O)C[C@](C)(O)C[C@@]3(O)C=C2)C[C@@H](O)[C@@H]1O | - | BACTEC | - | MIC | H37Rv | ≥12.5 µg/mL
C/C=C/c1ccc2oc(-c3ccc(O)c(OC)c3)c(C)c2c1 | - | resazurin / absorbance | - | MIC | Clinical isolate 49 | 3.9 µg/mL